A mixed list of measured activities; the numbers were collected in NIAID ChemDB.

Shared fields: growth or infection tests; species: Mycobacterium smegmatis

Percent inhibition refers to the dose given; in toxicity tests it is the harm to the cells. MIC50, MIC90 and the like: level of inhibition, or share of isolates inhibited. An empty or dashed field is not shown. Neighbouring rows are from separate reports. ECn: concentration that inhibits the pathogen or its effect by n%.

{"structure": "CCCCCCCCCCCCCCCC#CC(=O)OCCO", "strain": "mc22389", "endpoint": "MIC99", "result": "19.3 µM"}
{"structure": "C[C@H]1COc2c(N3CCSCC3)c(F)cc3c(=O)c(C(=O)O)cn1c23", "endpoint": "MIC99", "read by": "agar", "result": "4.28 µM"}
{"structure": "C1CCC(NCCNC2CCCC2)C1", "strain": "ATCC 607", "endpoint": "EC50", "result": "<250 µg/mL"}
{"structure": "C[C@H]1COc2c(N3CCC(O)(c4ccc(Cl)cc4)CC3)c(F)cc3c(=O)c(C(=O)O)cn1c23", "endpoint": "MIC99", "read by": "agar", "result": "26.43 µM"}
{"structure": "CCCCCCCCCCCCNCCNCCCCCCCCCCCC", "strain": "ATCC 607", "endpoint": "EC50", "result": ">250 µg/mL"}
{"structure": "CCCCCCCCCCCCCCSCC#CC(=O)O", "strain": "mc2155", "endpoint": "MIC99", "result": "80 µM"}
{"structure": "CCc1cc(C(N)=S)ccn1", "strain": "MC^2 847", "endpoint": "MIC", "result": "60 µg/mL"}
{"structure": "CCC1CN(c2c(F)cc3c(=O)c(C(=O)O)cn(C4CC4)c3c2OC)CCN1", "strain": "D95Y mutant", "endpoint": "MIC99", "result": "0.5 µg/mL"}
{"structure": "CCCCCCCCCCCCCC#CC(=O)OCC(O)CO", "strain": "mc2651", "endpoint": "MIC99", "result": "6.1 µM"}
{"structure": "COc1c(N2CC[C@H](N)C2)c(F)cc2c(=O)n(N)c(=O)n(C3CC3)c12", "strain": "D95Y mutant", "endpoint": "MIC99", "result": "25 µg/mL"}
{"structure": "CCCCCCCCCN(C)CCN(C)C", "strain": "ATCC 607", "endpoint": "inhibition", "dose": "60 µg/mL", "result": "100%"}
{"structure": "CC1COc2c(N3CCN(C)C(c4ccccc4)C3)c(F)c([N+](=O)[O-])c3c(=O)c(C(=O)O)cn1c23", "endpoint": "MIC99", "read by": "agar", "result": "6.49 µM"}
{"structure": "CCCCCNCCNCCCCC", "strain": "ATCC 607", "endpoint": "EC50", "result": "<250 µg/mL"}
{"structure": "CCSCCCCCCCCCCCCC#CC(=O)O", "strain": "mc2155", "endpoint": "MIC99", "result": "50.3 µM"}
{"structure": "Cc1c(N2CC[C@@H](CN)C2)c(F)cc2c(=O)n(N)c(=O)n(C3CC3)c12", "strain": "G89C mutant", "endpoint": "MIC99", "result": "0.156 µg/mL"}
{"structure": "CCCCCN(CCCCC)CCNC(C)C", "strain": "ATCC 607", "endpoint": "EC50", "result": "<250 µg/mL"}
{"structure": "C[C@H]1COc2c(N3CCC4(CC3)OCCO4)c(F)c(N)c3c(=O)c(C(=O)O)cn1c23", "endpoint": "MIC99", "read by": "agar", "result": "11.16 µM"}
{"structure": "CC(C)NCCNc1ccccc1", "strain": "ATCC 607", "endpoint": "inhibition", "dose": "1000 µg/mL", "result": "0%"}
{"structure": "COc1c(N2C[C@@H]3CCCN[C@@H]3C2)c(F)cc2c(=O)n(N)c(=O)n(C3CC3)c12", "strain": "G89C mutant", "endpoint": "MIC99", "result": "6.25 µg/mL"}
{"structure": "CCCCCCCCCCCCCCCC#CC(=O)OCC(O)CO", "strain": "mc2651", "endpoint": "MIC99", "result": "3 µM"}
{"structure": "CC(NCCNC(C)C(C)(C)C)C(C)(C)C", "strain": "ATCC 607", "endpoint": "inhibition", "dose": "250 µg/mL", "result": "0%"}

2 of the rows above, restated:

structure	strain	endpoint	read by	dose	result
C1CCC(NCCNC2CCCC2)C1	ATCC 607	EC50	-	-	<250 µg/mL
CCCCCN(CCCCC)CCNC(C)C	ATCC 607	EC50	-	-	<250 µg/mL